Tested on: β-hematin formation
Experiment: Inhibition of β-hematin formation (lipid-catalysed heme crystallization)
Format: biochemical
Details: fold higher than observed for CQ

In the case of NCCNc1ccnc2cc(Cl)ccc12 [CEQ], the “β-hematin inhibitory concentration relative to CQ” value was 1.6 fold.
